Results of unrelated studies side by side (data: NIAID ChemDB).

Shared fields: host cell toxicity; cell line: MT-2; method: XTT; read-out: CC50

CCn: concentration that lowers growth or viability of the cells by n%.

CN(C(=O)[C@H](Cc1cc(F)cc(F)c1)NC(=O)CN1c2ccccc2N(CC(=O)N[C@@H](Cc2cc(F)cc(F)c2)C(=O)N(C)c2ccc3snnc3c2)S1(=O)=O)c1ccc2snnc2c1 ; result: 100 µM
O=C(C(=O)N1CCN(C(=O)c2ccc(F)c(Cl)c2)CC1)c1c[nH]c2ccccc12 ; result: >10 µM
COc1ccc(-c2cc(C(=O)Nc3ccc(S(=O)(=O)Nc4cc(C)nc(C)n4)cc3)c3ccccc3n2)cc1 ; result: 41.81 µM
COc1ccc(N(C)C(=O)[C@H](Cc2ccccc2)NC(=O)NS(=O)(=O)N[C@@H](Cc2ccccc2)C(=O)N(C)c2ccc3c(c2)OCO3)cc1 ; result: 50 µM
Cn1nc(NS(C)(=O)=O)c2c(Cl)ccc(-n3c([C@H](Cc4cc(F)cc(F)c4)NC(=O)Cn4nc(C5CC5)c5c4C(F)(F)[C@@H]4C[C@H]54)nc4nc(OCCC(F)(F)F)ccc4c3=O)c21 ; result: >0.1 µM
Cn1nc(NS(C)(=O)=O)c2c(Cl)ccc(-n3c([C@H](Cc4cc(F)cc(F)c4)NC(=O)Cn4nc(C(F)F)c5c4C(F)(F)[C@@H]4C[C@H]54)nc4nc(-c5nccc(C(F)(F)F)n5)ccc4c3=O)c21 ; result: >0.5 µM
CN(C)C(=O)C1Cc2cccnc2N1S(=O)(=O)NC(=O)N[C@@H](Cc1cc(F)cc(F)c1)C(=O)N(C)c1ccc2scnc2c1 ; result: >100 µM
COc1ccc(N(C)C(=O)[C@H](Cc2ccccc2)NC(=O)c2cccc(C(=O)N[C@@H](Cc3ccccc3)C(=O)N(C)c3ccc(OC)cc3)n2)cc1 ; result: 33.3 µM
O=C(C(=O)N1CCN(C(=O)c2cccc(Cl)c2F)CC1)c1c[nH]c2ccccc12 ; result: >10 µM
Cc1nccnc1-c1ccc2c(=O)n(-c3ccc(Cl)c4c(NS(C)(=O)=O)nn(C)c34)c([C@H](Cc3cc(F)cc(F)c3)NC(=O)Cn3nc(C(F)F)c4c3C(F)(F)[C@@H]3C[C@H]43)nc2n1 ; result: >0.5 µM
[2H]c1nc2cc(N(C)C(=O)[C@H](Cc3cc(F)cc(F)c3)NC(=O)NS(=O)(=O)N3CCc4cccnc43)ccc2s1 ; result: >100 µM
C[C@@H](C(=O)N[C@@H](Cc1cc(F)cc(F)c1)c1nc2cc(-c3ccccc3F)ccc2c(=O)n1-c1ccc(Cl)c2c(NS(=O)(=O)C3CC3)nn(CC(F)F)c12)n1ccc(C2CC2)n1 ; result: >0.5 µM
COc1ccc(N(C)C(=O)[C@H](Cc2ccccc2)NC(=O)NS(=O)(=O)N(c2ccccc2)C(C)C)cc1 ; result: >100 µM
Cc1nnc(-c2ccc3c(=O)n(-c4ccc(Cl)c5c(NS(C)(=O)=O)nn(CC(F)(F)F)c45)c([C@H](Cc4cc(F)cc(F)c4)NC(=O)Cn4nc(C(F)F)c5c4C(F)(F)[C@@H]4C[C@H]54)nc3c2)nc1C ; result: >0.5 µM
CC(=O)N1CCCCC1C(NC(=O)C(=O)Nc1ccc(Cl)cc1)c1nc(C)c(CCO)s1 ; result: >84 µM
COc1ccc2c(C(=O)C(=O)N3CCN(C(=O)c4ccccc4)CC3)c[nH]c2c1 ; result: >10 µM
O=C(Nc1cc(NC(=O)c2ccccc2)cc(-c2nc3ccccc3c(=O)o2)c1)c1ccccc1 ; result: >100 µM
Cc1nc2cc(-c3ccc4c(=O)n(-c5ccc(Cl)c6c(NS(C)(=O)=O)nn(C)c56)c([C@H](Cc5cc(F)cc(F)c5)NC(=O)Cn5nc(C(F)F)c6c5C(F)(F)[C@@H]5C[C@H]65)nc4c3)ccc2s1 ; result: >0.5 µM
Cn1nc(NS(C)(=O)=O)c2c(Cl)ccc(-n3c(C(Cc4cc(F)cc(F)c4)NC(=O)Cn4nc(C(F)F)c5c4C(F)(F)[C@@H]4C[C@H]54)nc4cc(-c5ccccc5F)ccc4c3=O)c21 ; result: >1 µM
Cc1nccnc1-c1ccc2c(=O)n(-c3ccc(Cl)c4c(NS(C)(=O)=O)nn(C)c34)c(C(Cc3cc(F)cc(F)c3)NC(=O)Cn3nc(C(F)F)c4c3C(F)(F)[C@@H]3C[C@H]43)nc2c1 ; result: >0.5 µM
Cc1ccc2[nH]cc(C(=O)C(=O)N3CCN(C(=O)c4ccccc4)CC3)c2c1 ; result: >10 µM
Cn1nc(NS(C)(=O)=O)c2c(Cl)ccc(-n3c(C(Cc4cc(F)cc(F)c4)NC(=O)Cn4nc(C(F)F)c5c4C(F)(F)C4CC54)nc4nc(OCCC(C)(F)F)ccc4c3=O)c21 ; result: >10 µM
Cn1nc(NS(C)(=O)=O)c2c(Cl)ccc(-n3c([C@H](Cc4cc(F)cc(F)c4)NC(=O)Cn4nc(C(F)F)c5c4C(F)(F)[C@@H]4C[C@H]54)nc4nc(-c5cnccn5)ccc4c3=O)c21 ; result: >0.5 µM
C=CCN(C(=O)[C@H](Cc1cc(F)cc(F)c1)NS(=O)(=O)c1cccc(S(=O)(=O)N[C@@H](Cc2cc(F)cc(F)c2)C(=O)N(CC=C)c2ccc(OC)cc2)c1)c1ccc(OC)cc1 ; result: 100 µM
CN(C(=O)[C@H](Cc1cc(F)cc(F)c1)NC(=O)NS(=O)(=O)N1CCCC1c1ccccn1)c1ccc2scnc2c1 ; result: >100 µM
Cn1nc(NS(C)(=O)=O)c2c(Cl)ccc(-n3c([C@H](Cc4cc(F)cc(F)c4)NC(=O)Cn4nc(C5CC5)c5c4C(F)(F)[C@H]4C[C@@H]54)nc4nc(OCCC(C)(F)F)ccc4c3=O)c21 ; result: >0.1 µM
Cc1cc(NC(=O)C(=O)NCCN2CCN(C(=O)c3ccccc3F)CC2)ccc1Br ; result: 71.46 µM
CN(C(=O)[C@H](Cc1cc(F)cc(F)c1)NC(=O)NS(=O)(=O)N1CCc2cccnc21)c1ccc2scnc2c1 ; result: >100 µM
Cn1nc(NS(C)(=O)=O)c2c(Cl)ccc(-n3c([C@@H](Cc4cc(F)cc(F)c4)NC(=O)Cn4nc(C(F)(F)F)c5c4C(F)(F)[C@@H]4C[C@H]54)nccc3=O)c21 ; result: >1 µM
O=C(C(=O)N1CCN(C(=O)c2ccc(F)c(F)c2)CC1)c1c[nH]c2ccccc12 ; result: >10 µM
CN(C(=O)[C@H](Cc1cc(F)cc(F)c1)NC(=O)NS(=O)(=O)N1CCc2cncnc21)c1ccc2scnc2c1 ; result: >100 µM
Cn1nc(NS(C)(=O)=O)c2c(Cl)ccc(-n3c([C@H](Cc4cc(F)cc(F)c4)NC(=O)Cn4nc(C(F)(F)F)c5c4C(F)(F)[C@@H]4C[C@H]54)nccc3=O)c21 ; result: >1 µM
CC(=O)Oc1cc2[nH]cc(C(=O)C(=O)N3CCN(C(=O)c4ccccc4)CC3)c2cc1OC(C)=O ; result: >10 µM
O=C(CCCCC(=O)Nc1sc2c(c1C(=O)O)CCCC2)Nc1sc2c(c1C(=O)O)CCCC2 ; result: >100 µM
[O-][n+]1onc2ncnc(N3CC[N+]4(CC3)CC[N+]3(CCN(c5ncnc6no[n+]([O-])c56)CC3)CC4)c21 ; result: 79.1 µM
CC1Cc2cccnc2N1S(=O)(=O)NC(=O)N[C@@H](Cc1cc(F)cc(F)c1)C(=O)N(C)c1ccc2scnc2c1 ; result: >1 µM
O=C(C(=O)N1CCN(C(=O)c2ccccc2)CC1)c1c[nH]c2cccc(F)c12 ; result: >10 µM

For reference, 2 entries again:

SMILES,result
O=C(CCCCC(=O)Nc1sc2c(c1C(=O)O)CCCC2)Nc1sc2c(c1C(=O)O)CCCC2,>100 µM
C[C@@H](C(=O)N[C@@H](Cc1cc(F)cc(F)c1)c1nc2cc(-c3ccccc3F)ccc2c(=O)n1-c1ccc(Cl)c2c(NS(=O)(=O)C3CC3)nn(CC(F)F)c12)n1ccc(C2CC2)n1,>0.5 µM

Neighbouring rows are from separate reports.